Measured values from several laboratories, pooled; numbers as filed in NIAID ChemDB.

All rows: growth or infection tests; species: Aspergillus fumigatus; read-out: MIC100

Two numbers with a dash give a range or band. MIC50, MIC90 and the like: level of inhibition, or share of isolates inhibited. Lines come from different laboratories, so protocols vary. Blank or dashed fields: not listed here.

smiles,strain or isolate,read by,setting,value
CC1/C=C/C=C/C=C/C=C/C(O[C@@H]2O[C@H](C)[C@@H](O)[C@H](N)[C@@H]2O)CC2OC(O)(CC(O)CC(O)C/C=C/C(=O)OC1C)CC(O)C2C(=O)O,CGMCC 3.3552,broth dilution,-,6.25 µg/mL
O=C1CSC2(CCc3ccccc32)N1n1c(COc2ccc(Cl)cc2)n[nH]c1=S,-,-,-,25 µg/mL
C[C@H]1[C@H](O)[C@@H](C)/C=C/C=C/C=C/C=C/C=C/C=C/C=C/[C@H](O[C@@H]2O[C@H](C)[C@@H](O)[C@H](N)[C@@H]2O)C[C@@H]2O[C@](O)(C[C@@H](O)C[C@@H](O)CC[C@H](O)[C@@H](O)C[C@@H](O)CC(=O)O[C@H]1C)C[C@H](O)[C@H]2C(=O)O,ATCC 204305,broth dilution,24 h,0.5 µg/mL
CCC(C)n1ncn(-c2ccc(N3CCN(c4ccc(OC[C@H]5CO[C@](Cn6cncn6)(c6ccc(Cl)cc6Cl)O5)cc4)CC3)cc2)c1=O,MRCM 32208,broth dilution / visual reading,-,>8 µg/mL
O=C1CSC2(CCc3ccccc32)N1n1c(-c2cccnc2)n[nH]c1=S,-,-,-,12.5 µg/mL
CC1CC(c2ccncc2)Nc2ccc(Br)cc21,ATCC 26934,-,-,>250 µg/mL
COc1ccc(-c2n[nH]c(COc3nc(C(F)(F)F)nc4ccccc34)n2)cc1OC,MTCC 343,-,-,50 µg/mL
Cc1cc(O)c2c(c1)C(=O)c1cc(O)c(O)c(O)c1C2=O,-,visual reading,-,35–71 µM
FC(F)(F)c1nc(OCc2nc(-c3ccc(Cl)cc3)n[nH]2)c2ccccc2n1,MTCC 343,-,-,25 µg/mL
C=CC(C)(O)CCCC(C)CCCC(C)CCCC(C)C,ATCC 16404,broth dilution,-,125 µg/mL
Cc1nc(OCc2nc(-c3ccccc3)n[nH]2)c2ccccc2n1,MTCC 343,-,-,50 µg/mL
Cc1ccccc1OCc1n[nH]c(=S)n1N1C(=O)CSC12CCc1ccccc12,-,-,-,12.5 µg/mL
c1coc(-c2n[nH]c(COc3ncnc4ccccc34)n2)c1,MTCC 343,-,-,12.5 µg/mL
O=C1CSC2(CCc3ccccc32)N1n1c(-c2ccc([N+](=O)[O-])cc2)n[nH]c1=S,-,-,-,25 µg/mL
Fc1ccc(-c2n[nH]c(COc3ncnc4ccccc34)n2)cc1,MTCC 343,-,-,6.25 µg/mL
CC(C)=CCc1ccc(C2C(=O)OC(Cc3ccc(O)cc3)C2C)cc1O,-,broth dilution,-,34.13 µg/mL

2 of the rows above, restated:

smiles,strain or isolate,read by,setting,value
COc1ccc(-c2n[nH]c(COc3nc(C(F)(F)F)nc4ccccc34)n2)cc1OC,MTCC 343,-,-,50 µg/mL
O=C1CSC2(CCc3ccccc32)N1n1c(-c2cccnc2)n[nH]c1=S,-,-,-,12.5 µg/mL